Measured values from several laboratories, pooled; numbers as filed in NIAID ChemDB.

All rows: toxicity to cultured cells; read-out: CC50

a–b is a range or a potency band. Blank or dashed fields: not listed here. CCn: concentration that lowers growth or viability of the cells by n%. Rows are shuffled and stem from different studies.

compound,cell line,method,value
Nc1ccn(C2CO[C@H](CO)[C@H]2O)c(=O)n1,NC-37,-,38.82 µg/mL
N#Cc1nc2c(-c3nc4ccccc4[nH]3)c(N)n(CCCn3ccnc3)c2nc1C#N,L6 rat skeletal myoblasts,resazurin / fluorescence,>100 µM
O=C(NCc1ccc(Cl)cc1)c1c[nH]c2c(F)cc(CCCO)cc2c1=O,REF,-,>50 µM
CCC(Sc1ncnc2c1cnn2COCCO)C(N)=O,E6SM,-,>400 µg/mL
O=C(O)c1cn(/N=C/c2ccc([N+](=O)[O-])cc2)c(=O)c2ccccc12,HEP-2/L-929/VERO,-,250 µM
N#Cc1nc2c(-c3nc4ccccc4[nH]3)c(N)n(CC(F)(F)C(F)(F)C(F)(F)F)c2nc1C#N,L6 rat skeletal myoblasts,resazurin / fluorescence,42 µM
N#Cc1c(Nc2ccccc2)s[nH]c1=O,Huh7,-,>50 µM
CC1C(=O)N(C)c2ccc(C(=O)CN3CCN(c4noc5cc(Cl)ccc45)CC3)cc21,RAW 264.7,MTT,53.84 µg/mL
COc1ccc(-c2cnc3nc(N)nc(N4CCN(CC(=O)N5CCCC5)CC4)c3n2)cc1OC,Huh7,ATP,10–20 µM
COC(=O)C1=C(C)NC(c2ncc(F)cc2F)=NC1c1ccc(F)cc1Cl,Primary human hepatocytes,MTT,35 µM
CCOC(=O)CCCCCOc1cccc(CN(C(=O)c2ccc(-c3ccc4cc[nH]c4c3)cc2)C(C)C)c1,BJ,-,>20 µM
CC1=CSC2=NC(/C=C/c3ccc4c(c3)OCO4)=C(C(=O)/C=C/c3ccc4c(c3)OCO4)C(c3ccccc3)N12,C1008 (Vero cells),resazurin,497 µg/mL
COC(=O)c1c(C)cc(OC)c(O)c(=O)c1OC,CEM-SS,absorbance,32 µM
Nc1ncnc2c1ncn2C1CO[C@H](CO)[C@H]1CO,NC-37,-,16.44 µg/mL
CC(C)(N)CC(NC(=O)c1ccc(-c2ccc(C(F)(F)F)cn2)[nH]1)c1nc(CO)cs1,TZM-bl,MTS / absorbance,59 µM
O=C(CCN1C(=O)C=CC1=O)N1CCCN(C(=O)CCN2C(=O)C=CC2=O)CCCN(C(=O)CCN2C(=O)C=CC2=O)CCC1,PM1 (PHA stimulated),-,3 µM
Nc1nc(-c2ccc(NC(=O)NCCc3ccc(F)cc3)cc2)cs1,HS68,-,<5 µM
Cc1nnc(-c2cccc(-c3ccc(C(=O)N(Cc4cccc(OCCCCCC(=O)OC(=O)O)c4)C(C)C)cc3)c2)o1,RAJI,-,>20 µM
Nc1nc(-c2ccc(NC(=O)NCc3ccc(Cl)cc3)cc2)cs1,HS68,-,<1 µM
CCN1C(=O)Cc2cc(C(=O)CN3CCN(c4noc5ccccc45)CC3)ccc21,RAW 264.7,MTT,65.07 µg/mL
Cc1[nH]nc2c1C(c1cc(C#N)cc(-c3ccc(C(=O)O)s3)c1)(C(C)C)C(C#N)=C(N)O2,L6,fluorescence,>224.5 µM
N#Cc1c(Nc2ccc(C(=O)O)cc2)s[nH]c1=O,Huh7,-,>50 µM
Cc1[nH]nc2c1C(c1cc(C#N)cc(C(F)(F)F)c1)(C(C)C)C(C#N)=C(N)O2,L6,fluorescence,131.8 µM
N#Cc1c(Nc2cc(Br)cc(C(F)(F)F)c2)s[nH]c1=O,Huh7,-,>50 µM
Nc1nc2c(ncn2C2CO[C@H](CO)[C@H]2O)c(=O)[nH]1,NC-37,-,≥100 µg/mL
N#Cc1c(Nc2cccc(Cl)c2Cl)s[nH]c1=O,Huh7,-,>50 µM
CC(C)N(Cc1cccc(OCCCCCC(=O)OC(=O)O)c1)C(=O)c1ccccc1,RAJI,-,>20 µM
O=C(O)c1cn(/N=C/c2ccccc2)c(=O)c2ccccc12,HEP-2/L-929/VERO,-,100 µM
CC1=CSC2=NC(/C=C/c3ccccc3)=C(C(=O)/C=C/c3ccccc3)C(c3ccccc3)N12,C1008 (Vero cells),resazurin,195 µg/mL
O=C(O)c1cn(/N=C/c2ccccc2Cl)c(=O)c2ccccc12,HEP-2/L-929/VERO,-,30 µM
CC(C)N(Cc1cccc(OCCCCCC(=O)OC(=O)O)c1)C(=O)c1ccc(-c2cc3ccccc3n2S(=O)(=O)c2ccccc2)cc1,BJ,-,>20 µM
Clc1nccc2[nH]c(CC3CCCCC3)c(CN3CCOCC3)c12,HEK293T,MTT,21.2 µg/mL
O=[N+]([O-])c1ccc(N=NNc2ccc([N+](=O)[O-])cc2Cl)c(Cl)c1,J774A.1,neutral red,46.59 µM
N#Cc1c(Nc2ccc(Cl)cn2)s[nH]c1=O,Huh7,-,>50 µM
O=C(NCCOCCOCCN1C(=O)C=CC1=O)c1cc(C(=O)NCCOCCOCCN2C(=O)C=CC2=O)cc(C(=O)NCCOCCOCCN2C(=O)C=CC2=O)c1,PM1 (PHA stimulated),-,0.33 µM
COc1ccc(OC)c(OC)c1CNC(=O)c1ccc2cccnc2n1,WST-1,-,>56.6 µM
O=C(O)c1cn(/N=C/c2ccccc2Br)c(=O)c2ccccc12,HEP-2/L-929/VERO,-,30 µM
Cc1ccccc1CN(CC(=O)Nc1ccc(-c2csc(N)n2)cc1)C(=O)Cc1ccccn1,HS68,-,>25 µM
Nc1ncnc2c1c(Br)cn2COCCO,BSC-1,-,>100 µM
COc1ccc(-c2cnc3nc(N)nc(N4CCN(C(=O)Nc5ccc(Br)cc5)CC4)c3n2)cc1OC,Huh7,ATP,<10 µM
Nc1ncnc2c1ncn2C1C[C@H]2C[C@@H]1c1ccsc12,Huh,-,14 µM
Cc1[nH]nc2c1C(c1cc(Cl)cc(C(F)(F)F)c1)(C(C)C)C(C#N)=C(N)O2,L6,fluorescence,46.5 µM
C#CCNC(=O)C(=O)c1cc(C(=O)Nc2ccc(F)c(F)c2)n(C)c1,Human hepatocellular carcinoma (HepG2),absorbance,>100 µM
CCN(CC)CCCC(C)Nc1ccnc2cc(Cl)ccc12,NFF,sulforhodamine,24.1 µM
CC(C)N(Cc1cccc(OCCCCCC(=O)OC(=O)O)c1)C(=O)c1ccc(-c2c[nH]c3ccccc23)cc1,RAJI,-,>20 µM
COc1ccc(-c2cnc3nc(N)nc(N4CCN(S(=O)(=O)Cc5ccccc5)CC4)c3n2)cc1OC,Huh7,ATP,>20 µM
C=C(C)C1CC[C@@H]2CC[C@]3(C)C(CCC4[C@@]5(C)CC[C@H](O)C(C)(C)C5CC[C@]43C)C12,1A2,XTT,11.6 µg/mL
CC[C@H](/C=C/[C@@H](C)[C@H]1CCC2C3CC=C4CC(O[C@@H]5O[C@H](CO)[C@@H](O)[C@H](O)[C@H]5O)CC[C@]4(C)C3CC[C@@]21C)C(C)C,1A2,XTT,>125 µg/mL
COc1ccc2c(O[C@@H]3C[C@H]4C(=O)N[C@]5(C(=O)NS(=O)(=O)C6CC6)C[C@H]5/C=C\CCCCN(C)C(=O)[C@@H]4C3)cc(-c3nc(C(C)C)cs3)nc2c1C,Huh7-Luc,-,>42 µM
CCCCCCCCCCc1cc2cn(C3CCCCC3)c(=O)nc2o1,HEL,-,>200 µM
C[C@H](NCC(=O)Nc1ccc(-c2csc(N)n2)cc1)c1ccccc1,HS68,-,>30 µM
Nc1nc2c(ncn2COC(CO)CO)c(=O)[nH]1,GPE,-,700 µM
CC(CCC(=O)N[C@@H](Cc1ccc(O)cc1)C(=O)O)C1CCC2C3CCC4C[C@H](O)CCC4(C)C3C[C@H](O)C12C,VK2/E6E7,XTT,227.5 µg/mL
O=C(O)C(O)c1ccccc1,T CELLS,-,1.82 µg/mL
Nc1nc(N)c2ncn(C3CO[C@H](CO)[C@H]3O)c2n1,NC-37,-,87.63 µg/mL
Cc1[nH]nc2c1C(c1cc(Cl)cc(-c3cccc(C#N)c3)c1)(C1CCC1)C(C#N)=C(N)O2,L6,fluorescence,6.8 µM
Clc1ncnc2c1ncn2C1C[C@H]2C[C@@H]1[C@@H]1CSC[C@H]21,Huh,-,>20 µM
[O-][n+]1onc2ncnc(N3CC[N+]4(CC3)CC[N+]3(CCN(c5ncnc6no[n+]([O-])c56)CC3)CC4)c21,HELF,XTT,330 µM
CC(C)N(Cc1ccc(OCC(=O)O)cc1)C(=O)c1ccc(-c2ccc3c(c2)OCO3)cc1,HEK 293,-,>20 µM
NC(=O)CSc1ncnc2c1cnn2COCC(O)CO,E6SM,-,>400 µg/mL
NCCC(NC(=O)c1ccc(-c2ccc(C(F)(F)F)nn2)[nH]1)c1nc(CO)cs1,TZM-bl,MTS / absorbance,>73 µM
COc1ccc(-c2cnc3nc(N)nc(N4CCN(Cc5ccc(C)cc5)CC4)c3n2)cc1OC,Huh7,ATP,>20 µM
CCN1C(=O)Cc2cc(C(=O)CN3CCN(c4ccc([N+](=O)[O-])cc4)CC3)ccc21,RAW 264.7,MTT,61.88 µg/mL
Clc1ncnc2c1ncn2C1C[C@H]2C[C@@H]1c1cscc12,Huh,-,16 µM
O=C(O)c1cn(/N=C/c2ccc(Br)cc2)c(=O)c2ccccc12,HEP-2/L-929/VERO,-,80 µM
O=C(O)c1ccc(N2C(=O)c3cccc([N+](=O)[O-])c3C2=O)cc1O,RAW 264.7,visual reading / absorbance,>100 µg/mL
CN(C)CCCn1c(N)c(-c2nc3ccccc3[nH]2)c2nc(C#N)c(C#N)nc21,L6 rat skeletal myoblasts,resazurin / fluorescence,1 µM
O=C(NCc1cccs1)c1nn2c(c1Cl)N[C@H](c1ccco1)C[C@@H]2C(F)(F)F,CA32 replicon cells,ATP,>100 µM
CCOC(=O)CCCCCOc1cccc(CN(C(=O)c2ccc(-c3ccco3)cc2)C(C)C)c1,HepG2,-,>20 µM
Cc1[nH]nc2c1C(c1cc(C#N)cc(-c3ccc(C(=O)NCCCN4CCN(C)CC4)s3)c1)(C(C)C)C(C#N)=C(N)O2,L6,fluorescence,94.1 µM
O=C(NCc1ccc(Cl)cc1)c1c[nH]c2ccc(CCCO)cc2c1=O,REF,-,48.7 µM
O=C1OCc2cc(=O)c(O)c(O)c(O)c21,CEM-SS,absorbance,19 µM
N#Cc1c(Nc2cc(F)c(Br)c(F)c2)s[nH]c1=O,Huh7,-,>50 µM
CC1=CSC2=NC(/C=C/c3ccc(Br)cc3)=C(C(=O)/C=C/c3ccc(Br)cc3)C(c3ccc(Cl)cc3)N12,C1008 (Vero cells),resazurin,420 µg/mL
N#Cc1nc2c(-c3nc4ccccc4[nH]3)c(N)n(CCCN3CCOCC3)c2nc1C#N,L6 rat skeletal myoblasts,resazurin / fluorescence,3 µM
CCN1C(=O)Cc2cc(C(=O)CN3CCN(c4noc5cccc(Cl)c45)CC3)ccc21,RAW 264.7,MTT,70.18 µg/mL
N#Cc1c(Nc2cc(Cl)cc(Cl)c2)s[nH]c1=O,Huh7,-,>50 µM
CC[C@H](C)Nc1nc(N)nc2ncc(-c3ccc(OC)c(OC)c3)nc12,Huh7,ATP,>20 µM
CCCC(CCC)NCCC(=O)Nc1ccc(-c2csc(N)n2)cc1,HS68,-,<9 µM
NC(=O)CSc1ncnc2c1cnn2CCCCO,E6SM,-,>400 µg/mL
CCCCCCCc1cc2cn(C3CCCC3)c(=O)nc2o1,HEL,-,194 µM
Nc1ncnc2c1ncn2C1CC(CO)C1,ATH8,-,50 µM
CCOC(=O)c1c(C)cc(=O)c(O)c(O)c1O,CEM-SS,absorbance,>50 µM
C=C1[C@H](CO)[C@@H](O)C[C@@H]1n1cnc2c(=O)[nH]c(N)nc21,Duck hepatocytes,-,8.1 µM
CCN1C(=O)C(C)c2cc(C(=O)CN3CCN(c4noc5c(Cl)cccc45)CC3)ccc21,RAW 264.7,MTT,113 µg/mL
O=C1N(CCCCCCOc2ccc(Br)cc2)CCN1c1ccncc1,RD,-,>25 µM
CCCCCCCCCCc1cc2cn(CCC)c(=O)nc2o1,HEL,-,>200 µM

Repeating the first 6 entries:

{"compound": "Nc1ccn(C2CO[C@H](CO)[C@H]2O)c(=O)n1", "cell line": "NC-37", "value": "38.82 µg/mL"}
{"compound": "N#Cc1nc2c(-c3nc4ccccc4[nH]3)c(N)n(CCCn3ccnc3)c2nc1C#N", "cell line": "L6 rat skeletal myoblasts", "method": "resazurin / fluorescence", "value": ">100 µM"}
{"compound": "O=C(NCc1ccc(Cl)cc1)c1c[nH]c2c(F)cc(CCCO)cc2c1=O", "cell line": "REF", "value": ">50 µM"}
{"compound": "CCC(Sc1ncnc2c1cnn2COCCO)C(N)=O", "cell line": "E6SM", "value": ">400 µg/mL"}
{"compound": "O=C(O)c1cn(/N=C/c2ccc([N+](=O)[O-])cc2)c(=O)c2ccccc12", "cell line": "HEP-2/L-929/VERO", "value": "250 µM"}
{"compound": "N#Cc1nc2c(-c3nc4ccccc4[nH]3)c(N)n(CC(F)(F)C(F)(F)C(F)(F)F)c2nc1C#N", "cell line": "L6 rat skeletal myoblasts", "method": "resazurin / fluorescence", "value": "42 µM"}